Values from PubChem BioAssay AID1259414 (Drosophila RNAi Screening Center, 2018).
The deposit covers about 24,000 reagents; shown is an unselected part of those that have a named target and a result. In the full data, about 1,210 (5%) are marked active. 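Inactive calls also include excluded dsRNAs with several or no targets, genes unexpressed in JW18, and well A1, regardless of score.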

Assay: 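Fly genes that alter Wolbachia amount inside host cells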 (primary screen)
Cells: Drosophila JW18 cells infected with Wolbachia
Knock-down reagent: long dsRNA against Drosophila genes, 0.25 µg dsRNA per well of a 384-well plate
Timing: 5 days
Challenge: cells persistently infected with Wolbachia before knock-down; no added drug
Measured: 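Automated imaging of bacterial rRNA staining divided by host cell count, reported as plate-normalised robust z-score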
Reading the numbers: Wolbachia per cell robust z: higher = more Wolbachia per host cell than the plate typical
Hit rule: 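Active if absolute robust z reaches 1.5 in two or more of three replicates, leaving out multi- or no-target dsRNAs, genes unexpressed in JW18 and A1 wells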

target | amplicon | Wolbachia per cell robust z, rep 1 | Wolbachia per cell robust z, rep 2 | Wolbachia per cell robust z, rep 3 | Call
aurB | DRSC03548 | -1.58 | 3.08 | 3.93 | active
aurB | DRSC23324 | 0.078 | 0.42 | 0.92 | inactive
CG42323 | DRSC19629 | -4.86 | -1.92 | 0.346 | inactive
CG42323 | DRSC21397 | 0.401 | 0.355 | 0.668 | inactive
nec | DRSC06769 | -0.0943 | -0.727 | -0.194 | inactive
nec | DRSC40840 | 0.714 | 0.414 | 0.39 | inactive
Jhbp5 | DRSC14240 | 0.751 | -0.259 | -0.28 | inactive
mRpL2 | DRSC10896 | -0.562 | -0.19 | -4.98 | inactive
esg | DRSC03530 | 0.363 | 0.243 | -0.555 | inactive
AkhR | DRSC03329 | 1.26 | -2.72 | 0.8 | inactive
AkhR | DRSC28694 | -1.97 | -0.134 | -0.412 | inactive
CG8093 | DRSC07078 | -3.12 | -2.25 | -2.44 | inactive
l(2)k09848 | DRSC04894 | -0.481 | -0.251 | 0.413 | inactive
CG42467 | DRSC40649 | -0.874 | 1.14 | -0.0269 | inactive
cmet | DRSC03511 | -0.96 | -3.42 | 0.347 | inactive
CG10205 | DRSC05979 | 0.51 | 0.372 | 0.314 | inactive
TwdlC | DRSC14749 | 0.316 | 0.604 | 1.09 | inactive
TwdlC | DRSC25255 | -1.03 | 0.908 | -0.373 | inactive
Rbp4 | DRSC16818 | -0.297 | -0.0192 | -0.644 | inactive
Rbp4 | DRSC27818 | -2.84 | -0.524 | 1.46 | inactive
CG8665 | DRSC03098 | -1.2 | -1.5 | -4.92 | inactive
CG4213 | DRSC00641 | 0.769 | 1.26 | 0.661 | inactive
CG6592 | DRSC10669 | 2.07 | 1.31 | 0.936 | inactive
Plod | DRSC10601 | -3.71 | -0.46 | -0.63 | inactive
Plod | DRSC10602 | 1.29 | 0.629 | 1.07 | inactive
CG7512 | DRSC10863 | -2.27 | 0.194 | 0.184 | inactive
RNaseP:RNA | DRSC22967 | -0.442 | -0.608 | -0.0206 | inactive
iotaTry | DRSC07634 | -0.813 | -1.11 | -0.225 | inactive
by | DRSC16482 | -1.52 | 0.0563 | -0.877 | inactive
by | DRSC28644 | 0.932 | -0.171 | 1.24 | inactive
asl | DRSC12319 | 1 | -1.28 | -1.46 | inactive
Pex11c | DRSC14677 | -0.613 | -2.39 | -0.53 | inactive
CG11696 | DRSC19417 | -0.0729 | -1.44 | 0.222 | inactive
Rilpl | DRSC18494 | -0.288 | -0.548 | -0.0794 | inactive
Acp26Aa | DRSC01855 | 0.0326 | -0.468 | -4.6 | inactive
Acp26Aa | DRSC40671 | 0.917 | 0.34 | 1.14 | inactive
Klp67A | DRSC11205 | -3.57 | 0.0567 | -0.565 | inactive
Klp67A | DRSC26028 | 0.878 | -0.774 | -0.306 | inactive

6 entries from above, set out differently.
target,amplicon,"Wolbachia per cell robust z, rep 1","Wolbachia per cell robust z, rep 2","Wolbachia per cell robust z, rep 3",Call
l(2)k09848,DRSC04894,-0.481,-0.251,0.413,inactive
CG42467,DRSC40649,-0.874,1.14,-0.0269,inactive
cmet,DRSC03511,-0.96,-3.42,0.347,inactive
CG10205,DRSC05979,0.51,0.372,0.314,inactive
TwdlC,DRSC14749,0.316,0.604,1.09,inactive
TwdlC,DRSC25255,-1.03,0.908,-0.373,inactive

The results go on:
target | amplicon | Wolbachia per cell robust z, rep 1 | Wolbachia per cell robust z, rep 2 | Wolbachia per cell robust z, rep 3 | Call
mRpL23 | DRSC08307 | -3.34 | -0.0034 | 0.159 | inactive
CG42709 | DRSC10277 | 0.695 | -0.116 | -0.271 | inactive
CG42709 | DRSC25693 | -0.339 | -0.0941 | -0.596 | inactive
l(3)neo38 | DRSC14946 | 0.459 | 0.215 | 0.755 | inactive
l(3)neo38 | DRSC16138 | 0.64 | -0.912 | -4.65 | inactive
l(3)neo38 | DRSC23262 | 1.11 | -7.89 | 2.16 | inactive
l(3)neo38 | DRSC27112 | 0.121 | -0.271 | -0.622 | inactive
l(3)neo38 | DRSC27668 | 0.939 | 1.45 | 1.1 | inactive
CG12301 | DRSC09875 | 0.785 | 0.303 | 0.157 | inactive
CG7290 | DRSC10800 | 0.537 | -2.12 | 1.09 | inactive
CG7290 | DRSC26651 | -0.00641 | -0.473 | -0.531 | inactive
CG15927 | DRSC19742 | 0.735 | -1.42 | 0.715 | inactive
CG15927 | DRSC28678 | -1.51 | 0.595 | -0.339 | inactive
Spn43Ab | DRSC06781 | -0.315 | -2.77 | 0.123 | inactive
Spn43Ab | DRSC28317 | -1.15 | -1.32 | -0.642 | inactive
CG12699 | DRSC06162 | -0.242 | -0.163 | -0.836 | inactive
CG12699 | DRSC25679 | -0.0653 | -0.154 | 0.779 | inactive
CG4702 | DRSC15626 | -4.39 | 0.00231 | 0.548 | inactive
mRpL47 | DRSC16827 | 1.18 | -0.318 | -0.764 | inactive
CG13032 | DRSC09912 | 0.891 | 0.0319 | 0.279 | inactive
CG13170 | DRSC06298 | -2.2 | 0.109 | 0.154 | inactive
CG13170 | DRSC25159 | -0.0511 | -0.831 | 0.496 | inactive
CG4949 | DRSC19926 | -0.261 | 0.45 | -0.478 | inactive
Inx7 | DRSC18784 | 0.999 | 1.67 | 0.584 | inactive
Inx7 | DRSC24113 | -0.815 | 0.376 | -0.0574 | inactive
Inx7 | DRSC38985 | -0.00518 | 0.398 | -0.427 | inactive
CG42233 | DRSC14328 | -1.04 | -0.417 | -0.377 | inactive
CG42233 | DRSC15416 | -0.793 | 0.892 | -0.452 | inactive
CG42233 | DRSC24948 | -1.62 | 0.322 | -0.633 | inactive
CG42233 | DRSC26880 | 0.408 | 0.712 | 0.734 | inactive
